The data set has as its target NSP9ΔC (Bombyx mori cypovirus 1 (BmCPV1)) (UniProt O72505). Briefly: EMSA. Particulars: SEC: 10 mM HEPES pH 7.5, 100 mM NaCl, recombinant protein, residues 1-286, label: 5' 6-FAM. (In general: Mobility shift assays separate free from complexed probe on a gel.)

For at least one entry, the source does not settle the construct or the ends of the probe. At least one verdict was read from the data and is not stated in words by the source.

With “AGTAAATCCCAGGCGCTCGGGTCGTTAGCC (double strand) [30 bp dsDNA]”, for the setting “no two-band pattern”, the binding result is reported as “binds”.

Consider “AGTAAGCTGTTAGCC (double strand) [15 bp dsDNA]”, for which the binding result was “binds”.

The values above are taken from article PMC11472163, “Crystal structure and nucleic acid binding mode of CPV NSP9: implications for viroplasm in Reovirales”.
